Experimental findings from US20240199725A1 (KOREA UNIVERSITY RESEARCH AND BUSINESS FOUNDATION, published 2024) are described below.

The labels stand for the following.
B1: VH variant JS-VH 9 (other)
VH: QVQLQESGGGVVQPGESLRLSCAASGFTFGDYAMHWVRQPPGKGLEWVSLISGDGFFTHYADSVEGRFTVSRDNSKNSLYLQMNSLRAEDTAVYYCARDSFGGHLDLWGQGTLVTVSS
B2: VH variant JS-VH 21 (other)
VH: B1 VH with G30E, F57Y
B3: VH variant JS-VH 19 (other)
VH: B1 VH with G30E, A97V

Substitutions are numbered along the chain they refer to.

This assay has as its target T1, COVID-19-RBD-GST (SARS-CoV-2 (COVID-19 virus), wild type).
T1 construct: also called dimeric RBD fused with a GST tag; COVID-19-RBD-GST-Alexa488 probe
Description: flow cytometry, variant on spheroplasts, 50 nM COVID-19 RBD-Alexa 488 antigen.
As for B1, the binding result was “binds”. Consider B2, for which the binding result is recorded as “binds”. Then B3, with “binds”.
